Experiment [1] addresses T1, neuraminidase (NA) of H1N1 A/California/07/2009 (influenza A virus H1N1 …).
T1 construct: whole, on cells
As to the kind of experiment: flow cytometry on NA-transfected 293-F cells, IgG 5 µg/ml; ++: 50-75% binding. (Flow cytometry measures light scatter and fluorescence of single cells or particles in a stream.)

Experiment [2] concerns the target T2, neuraminidase (NA) of H5N1 A/Hong Kong/156/1997 (influenza A virus H5N1 A/Hong …, UniProt Q9W7Y7 1-450). As to the kind of experiment: cell-based or functional assay.
Experiment [3] has as its target T3, neuraminidase (NA) of H1N1 A/Brisbane/59/2007 (influenza A virus H1N1 …).
T3 construct: whole, on cells
As to the kind of experiment: flow cytometry on NA-transfected 293-F cells, IgG 5 µg/ml; +++: 75-100% binding.

Experiment [4] addresses neuraminidase (NA) of H5N1 A/Vietnam/1194/2004 (NIBRG-14) (influenza A virus H5N1 …). The experiment is described as above.
Experiment [5] deals with T2, neuraminidase (NA) of H5N1 A/Hong …. As to the kind of experiment: cell-based or functional assay. The source holds these as a separate data set.
The target in experiment [6] is T4, neuraminidase (NA) of H3N2 A/Perth/16/2009 (influenza A virus H3N2 A/Perth/16/2009).
T4 construct: whole, on cells
As to the kind of experiment: flow cytometry on NA-transfected 293-F cells, IgG 5 µg/ml; ++: 50-75% binding.

Experiment [7] deals with T5, neuraminidase (NA) of H1N1 A/Puerto Rico/8/1934 (influenza A virus H1N1 A/Puerto …, UniProt P03468 1-454).
T5 construct: whole, on cells
Described as above.

Experiment [8] addresses T1, neuraminidase (NA) of H1N1 …. As to the kind of experiment: flow cytometry on NA-transfected 293-F cells, IgG 5 µg/ml; +++: 75-100% binding.

This note sets out measurements from US20180016348A1 (Janssen / Centocor, published 2018).

B1: CR12040 (antibody, V domains shown)
VH: QVQLVQSGAEVKKPGASVKVSCKASGYTFTNYYINWVRQAPGQGLEWMGRINPLHGGTGFAEKFQGRLTMTRDTSTSTVDMELSSLRSEDTAIYYCVKERDTTMATDYYGRSGCFDYWGQGTLVTVSS
VL: EIVLTQSPATLSLSPGERATLSCRASQSVRSYLAWYQQKPGQAPRLLIYDASNRATGIPARFSGSGSGTDFSLTISSLEPEDFAVYYCQQRSNWPITFGQGTRLEIK
For the molecule B1, the entries for the “percentage of stained cells (relative binding, FACS)” value in experiment [1], in experiment [3] and in experiment [4] were 50 to 75%, 75 to 100% and 75 to 100%, respectively. For the same molecule, the “EC50 of neuraminidase inhibition (NA-XTD assay, whole virus)” value in experiment [2] was over 100 µg/mL. Also, in experiment [5], the “IC50 of virus neutralization (VNA on MDCK cells)” value was over 50 µg/mL.

B2: CR12042 (antibody, V domains shown)
VH: EVQLVESGAEVRKPGSSVKVSCTASGDTFSSYTITWVRQAPGQGLEWMGEIIPIFGTANYAQKFQGRVTLTADESTTTAYMDLSSLRSEDTAVYYCARGPDNHSDRYFYYGMDVWGQGTTVTVSS
VL: EIVLTQSPLSLPVTPGEPASISCRSSQSLLHSTGNNYLDWYLQKPGQSPQLLIYLGSNRASGVPDRFSGSGSGTDFTLKISRVEAEDVGVYYCMQALQTPRTFGQGTKVDIK
As for B2, the “percentage of stained cells (relative binding, FACS)” value in experiment [6] was 50 to 75%; in experiment [7] it was 50 to 75%; in experiment [8], 75 to 100%; in experiment [3], 75 to 100%; in experiment [4] it was 75 to 100%. Besides, the “EC50 of neuraminidase inhibition (NA-XTD assay, whole virus)” value in experiment [2] came to 0.02 µg/mL. The “IC50 of virus neutralization (VNA on MDCK cells)” value in experiment [5] amounted to 0.29 µg/mL.
